According to article PMC12736150 (Pharmaceuticals, 2025):

Test system: MPXV strain MOH-NRC-0002/2022, clade II lineage A.2.1
Settings: MPXV in Vero-E6 cells

CC(C)C(=O)OC[C@H]1O[C@@H](n2ccc(NO)nc2=O)[C@H](O)[C@@H]1O [Molnupiravir]
SI (selectivity safety index = CC50/IC50): 19.5
